From ChEMBL document CHEMBL3352109, “Synthesis and antifungal activity of substituted salicylaldehyde hydrazones, hydrazides and sulfohydrazides” (Bioorg Med Chem, 2014)
In brackets after ≈: the same amount, converted by molar mass. Activity calls are given as the source filed them. The rule behind the calls is not given here.

How the values were obtained:
Nakaseomyces glabratus = experiment: Antifungal activity against Candida glabrata ATCC 48435 by NCCLS method; type: functional
In short: (§1)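 Broth dilution per NCCLS yeast reference method, in HEPES-buffered RPMI with 1% DMSO. MIC80 is the lowest concentration giving more than 80% growth inhibition versus positive (no-drug) controls. Read by visual scoring, not absorbance. Highest level tested 125 µg/mL.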

Candida albicans = experiment: Antifungal activity against Candida albicans ATCC 10231 by NCCLS method; type: functional; in short: as §1

O=[N+]([O-])c1ccc(N/N=C/c2cc([N+](=O)[O-])cc([N+](=O)[O-])c2O)cc1
MIC80 (Nakaseomyces glabratus): 125 µg/mL (≈ 360 µM) | MIC80 (Candida albicans): 125 µg/mL (≈ 360 µM)

O=C(N/N=C/c1cc([N+](=O)[O-])cc([N+](=O)[O-])c1O)c1ccc([N+](=O)[O-])cc1
MIC80 (Nakaseomyces glabratus): inactive | MIC80 (Candida albicans): inactive
